Compound potency records, mixed from different reports. Data source: NIAID ChemDB in PubChem.

Common to all: growth or infection tests; species: Mycobacterium tuberculosis

Neighbouring rows are from separate reports.

smiles	strain or isolate	changes	read by	measure	tested at	result
CC1COc2c(N3CCN(C)CC3)c(F)cc3c(=O)c(C(=O)O)cn1c23	5 strains (ofloxacin-resistant)	-	-	MIC	-	5–10 µg/mL
Oc1cc(C(O)CCc2ccccc2)ccc1Oc1ccccc1	Clinical isolate	MDR	resazurin	MIC	-	>12.5 µg/mL
NC(=O)NC(=O)COc1ccc(Cl)cc1Cl	H37Rv	-	BACTEC	inhibition	12.5 µg/mL	0%
Oc1cc(C(O)CCc2ccc(F)cc2)ccc1Oc1ccccc1	Clinical isolate	MDR	resazurin	MIC	-	>12.5 µg/mL
CC[C@@H](CO)NCCN[C@@H](CC)CO	H37Rv	-	agar / absorbance	MIC	-	3.125 µg/mL
COc1cc(-c2nnc(SCC(=O)c3ccc(Cl)cc3)o2)cc(OC)c1OC	H37Rv	-	BACTEC	inhibition	6.25 µg/mL	27%
O=C(CCN1C(=O)/C(=C/c2ccc([N+](=O)[O-])cc2)SC1=S)NNC(=O)c1cccc2ccccc12	H37Rv	-	-	MIC	-	12.35 µM
O=C(NCc1ccc(Br)cc1)c1ncccc1S	CNCTC MY 331/8	-	-	MIC	-	8 µM
CCC(=O)OCC1OC(n2ccc(O)cc2=O)C(O)C1O	H37Rv	-	BACTEC	inhibition	12.5 µg/mL	3%
COC(=O)C1=C(C)N(c2ccc(OC)cc2)C(C)=C(C(=O)OC)C1c1ccc(-c2ccc(F)c(Cl)c2)o1	H37Rv	-	BACTEC / radiometric	inhibition	6.25 µg/mL	14%
N#Cc1c(N)oc(-c2ccccc2)c1-c1ccccc1	H37Rv	-	resazurin	inhibition	50 µg/mL	6%
CN1CCN(c2cc3c(cc2F)C(=O)c2nc4cc(F)ccc4c(=O)n2-3)CC1	H37Rv	-	-	MIC	-	>5 µg/mL
CN(C)CC(O)CN1c2ccccc2S(=O)c2ccc(Cl)cc21.Cl	H37Rv	-	BACTEC	inhibition	12.5 µg/mL	6%
CN/N=C/c1cc(C(F)(F)F)nc2c(C(F)(F)F)cccc12	-	-	-	MIC	-	>128 µM
COc1ccc(NC(=O)c2ncccc2S)cc1	CNCTC MY 331/8	-	-	MIC	-	16 µM
CO[C@H]1/C=C/O[C@@]2(C)Oc3c(C)c(O)c4c(O)c(c(/C=N/N5CCN(C)CC5)c(O)c4c3C2=O)NC(=O)/C(C)=C\C=C\[C@H](C)[C@H](O)[C@@H](C)[C@@H](O)[C@@H](C)[C@H](OC(C)=O)[C@@H]1C	23 strains (rifampicin-resistant)	-	-	MIC90	-	100 µg/mL
O=C(CSc1nnc(-c2ccccc2Cl)o1)c1ccccc1	H37Rv	-	BACTEC	inhibition	6.25 µg/mL	17%
CC(=O)c1ccc(-c2cn(Cc3cccc(Cl)c3)nn2)s1	BioA overexpression strain	-	turbidity	MIC50	-	>50 µM
COC(=O)C1=C(C)N(c2ccc([N+](=O)[O-])cc2)C(C)=C(C(=O)OC)C1c1ccc(-c2ccc(F)c(Cl)c2)o1	H37Rv	-	BACTEC / radiometric	inhibition	6.25 µg/mL	33%
N#C[B][n+]1ccc(C(=O)NNCc2ccccc2)cc1	-	-	BACTEC	inhibition	0.5 µM	0%
COc1cc(-c2nnc(SCC3(c4ccc(Cl)cc4)OCCO3)o2)cc(OC)c1OC	H37Rv	-	BACTEC	inhibition	6.25 µg/mL	28%
O=C(O)c1ccccc1O	7800	-	-	inhibition	40 µM	4%
Cc1ccn2nc(S(=O)(=O)Nc3c(Br)ccc4cccnc34)nc2n1	P887	INH RIF resistant	visual reading	MIC50	-	0.5 µM
Cc1ccc2nc3n(c(=O)c2c1)-c1ccccc1C3=O	H37Rv	-	-	MIC	-	1 µg/mL
CCn1cc(C(=O)O)c(=O)c2cc(F)c(N3CCNC(C)C3)c(F)c21	79 strains (drug-susceptible)	-	-	MIC90	-	1.02 µg/mL
CCNc1cc(N)[n+](CC)c2n[nH]c(N)c12	H37Rv	-	BACTEC	inhibition	12.5 µg/mL	-29%
Cc1nc2nc(S(=O)(=O)Nc3c(Br)ccc4cccnc34)nn2c2c1CCC2	M22	INH RIF resistant	visual reading	MIC50	-	2 µM
COc1cccc2c(=O)n3c(nc12)C(=O)c1cc(F)ccc1-3	MDR 10038	-	-	MIC	-	<0.3 µg/mL
CC(=O)Nc1oc(-c2ccccc2)c(-c2ccccc2)c1C#N	H37Rv	-	resazurin	inhibition	50 µg/mL	27%
CCOCCOCCOC12C(=O)C(Cl)=C(Cl)C(=O)C13C1C4C(Cl)C2CC413	H37Rv	-	resazurin	inhibition	6.25 µg/mL	29%
CC(=O)Nc1ccc(/C=N/NC(N)=S)cc1F	H37Rv	-	resazurin	MIC90	-	<0.1 µg/mL
CC1=N/C(=C/c2ccc3c(c2)OCO3)C(=O)O1	H37Rv	-	BACTEC	MIC bound	-	>12.5 µg/mL
COc1cc(-c2nnc(SCC3(c4ccccc4)OCCO3)o2)cc(OC)c1OC	H37Rv	-	BACTEC	inhibition	6.25 µg/mL	14%
O=C(NCc1cccc([N+](=O)[O-])c1)c1ncccc1S	CNCTC MY 331/8	-	-	MIC	-	8 µM
CN1CCN(/N=C/c2cc(C(F)(F)F)nc3c(C(F)(F)F)cccc23)CC1	-	-	-	MIC	-	16 µM
CCOC(=O)C1=C(C)N(c2ccc(Cl)cc2)C(C)=C(C(=O)OCC)C1c1ccc(-c2ccc(F)c(Cl)c2)o1	H37Rv	-	BACTEC / radiometric	inhibition	6.25 µg/mL	12%
CC1(C)CO/C(=C\C(=O)c2ccccc2)N1C(=O)c1ccccc1	H37Rv	-	BACTEC	MIC bound	-	>12.5 µg/mL
Oc1cc(Cl)ccc1Oc1ccc(Cl)cc1Cl	H37Rv	-	resazurin	MIC	-	12.5 µg/mL
COC(=O)C1=C(C)N(c2cccc(Cl)c2)C(C)=C(C(=O)OC)C1c1ccc(-c2ccc(F)c(Cl)c2)o1	H37Rv	-	BACTEC / radiometric	inhibition	6.25 µg/mL	27%
COc1cccc(C2(CSc3nnc(-c4cc(OC)c(OC)c(OC)c4)o3)OCCO2)c1	H37Rv	-	BACTEC	inhibition	6.25 µg/mL	5%
NC(=O)c1[nH]nc([C@@H]2O[C@H](CO)[C@@H](O)[C@H]2O)c1O	H37Rv	-	BACTEC	MIC bound	-	>12.5 µg/mL
Cc1noc(-c2ccc(N3CCN(C(=O)c4cccc(Cl)c4)CC3)cc2)n1	Wild type without biotin	-	turbidity	MIC50	-	>50 µM
O=C(CCN1C(=O)/C(=C/c2ccc([N+](=O)[O-])cc2)SC1=S)NNC(=O)c1ccccc1	H37Rv	-	-	MIC	-	1.71 µM
O=C(NCc1cccc([N+](=O)[O-])c1)c1ncccc1O	CNCTC MY 331/8	-	-	MIC	-	500 µM
CC(=O)c1ccc(N2CCN(C(=O)CC(C)C)CC2)cc1	Wild type without biotin	-	turbidity	MIC50	-	>50 µM
Fc1cccc(F)c1C1SCc2nc3ccc(Cl)cc3n21	H37Rv	-	BACTEC	MIC bound	-	>12.5 µg/mL
O=C1c2cc(Br)ccc2-n2c1nc1ccccc1c2=O	MDR 10038	-	-	MIC	-	1 µg/mL
O=C(CCN1C(=O)/C(=C/c2ccc([N+](=O)[O-])cc2)SC1=S)NNC(=O)c1ccncc1	H37Rv	-	-	MIC	-	1.54 µM
O=C(CSc1nnc(-c2ccccc2)o1)c1ccccc1	H37Rv	-	BACTEC	inhibition	6.25 µg/mL	28%
Cc1ccc(CCC(O)c2ccc(Oc3ccccc3)c(O)c2)cc1	H37Rv	-	resazurin	MIC	-	1.56 µg/mL
O=C(/C(=C/c1ccccc1)Sc1nnc(-c2ccccc2)o1)c1ccccc1	H37Rv	-	BACTEC	inhibition	6.25 µg/mL	30%
CN1CCN(c2ccc3c(=O)n4c(nc3c2)C(=O)c2cc(F)ccc2-4)CC1	MDR 10038	-	-	MIC	-	1 µg/mL
CCOC(=O)Cn1c(=O)c2ccccc2c2ccccc21	H37Rv	-	BACTEC	MIC bound	-	>12.5 µg/mL
COc1cc(-c2nnc(SCC3(c4ccc(F)cc4)OCCO3)o2)cc(OC)c1OC	H37Rv	-	BACTEC	inhibition	6.25 µg/mL	6%
CC1COc2c(N3CCN(C)CC3)c(F)cc3c(=O)c(C(=O)O)cn1c23	900201	-	-	MIC	-	0.5 µg/mL
O=[N+]([O-])[O][Ga]([O][N+](=O)[O-])[O][N+](=O)[O-]	H37Ra	-	-	EC50	-	<500 µM
C=C1C(=O)C2(C)OC2(C)C1C(=O)O	H37Rv	-	BACTEC	MIC	-	≥12.5 µg/mL
FC(F)(F)c1cc(-n2ccnc2)c2cccc(C(F)(F)F)c2n1	-	-	-	MIC	-	118 µM
CC1(C)CCCN1CCCN1c2ccccc2Sc2ccc(Cl)cc21.Cl	H37Rv	-	BACTEC	MIC bound	-	≤12.5 µg/mL
CC[C@H](C)N1CCN(c2cc(=O)c3nc4c(oc3c2)c2c(=O)c3c(O)c(C)c5c(c34)=C(O)[C@@](C)(O/C=C/[C@H](OC)[C@@H](C)[C@@H](OC(C)=O)[C@H](C)[C@H](O)[C@H](C)[C@@H](O)[C@@H](C)/C=C/C=C(/C)C(=O)N2)O5)CC1	6 strains (rifampicin-resistant)	-	-	MIC90	-	0.025 µg/mL
C=C1C(=O)OC2C1C(OC(=O)/C(C)=C/C)CC1(CO1)C1C(O)C=C(C)C21O	H37Rv	-	BACTEC	MIC bound	-	>12.8 µg/mL
O=C(CCN1C(=O)/C(=C/c2ccc(OCc3ccccc3)cc2)SC1=S)NNC(=O)c1cccc2ccccc12	H37Rv	-	-	MIC	-	88.18 µM
CC(=O)c1ccc(N2CCC(C(=O)c3cccc(Cl)c3)CC2)cc1	BioA overexpression strain	-	turbidity	MIC90	-	>50 µM
O=C1CC(SC(=S)N2CCOCC2)C(=O)N1	H37Rv	-	BACTEC	inhibition	128 µg/mL	100%
CC(C)(C)OC(=O)N1CCCC[C@H]1[C@@H](O)c1cc(C(F)(F)F)nc2c(C(F)(F)F)cccc12	-	-	-	MIC	-	31 µM
CC[C@@H](C)N1CCN(c2cc(=O)c3nc4c(oc3c2)c2c(=O)c3c(O)c(C)c5c(c34)=C(O)[C@@](C)(O/C=C/[C@H](OC)[C@@H](C)[C@@H](OC(C)=O)[C@H](C)[C@H](O)[C@H](C)[C@@H](O)[C@@H](C)/C=C/C=C(/C)C(=O)N2)O5)CC1	16 strains (rifampicin-susceptible)	-	-	MIC50	-	≤0.0125 µg/mL
COC(=O)C1=C(C)N(c2ccccc2)C(C)=C(C(=O)OC)C1c1ccc(-c2ccc(F)c(Cl)c2)o1	H37Rv	-	BACTEC / radiometric	inhibition	6.25 µg/mL	53%
CO[C@H]1/C=C/O[C@@]2(C)Oc3c(C)c(O)c4c(=O)c(c5oc6cc(N7CCN(CC(C)C)CC7)cc(=O)c6nc5c4c3=C2O)NC(=O)/C(C)=C\C=C\[C@H](C)[C@H](O)[C@@H](C)[C@@H](O)[C@@H](C)[C@H](OC(C)=O)[C@@H]1C	23 strains (rifampicin-resistant)	-	-	MIC90	-	25 µg/mL
COc1ccc(CCC(O)c2ccc(Oc3ccccc3)c(O)c2)cc1	Clinical isolate	INH resistant	resazurin	MIC	-	6.25 µg/mL
CCCCCCCCCCCCCCCCS(=O)(=O)Nc1cc(C(=O)NN)cc(C(=O)NN)c1	H37Rv	-	BACTEC	inhibition	12.5 µg/mL	-25%
CCCC(=O)N1CCN(c2ccc(C(C)=O)cc2)CC1	Wild type without biotin	-	turbidity	MIC50	-	>50 µM
O=C1OC(C(O)CO)C(O)=C1Nc1ccc(S(=O)(=O)c2ccc(NC3=C(O)C(C(O)CO)OC3=O)cc2)cc1	H37Rv	-	BACTEC	inhibition	12.5 µg/mL	49%
CO[C@H]1/C=C/O[C@@]2(C)Oc3c(C)c(O)c4c(O)c(cc(O)c4c3C2=O)NC(=O)/C(C)=C\C=C\[C@H](C)[C@H](O)[C@@H](C)[C@@H](O)[C@@H](C)[C@H](OC(C)=O)[C@@H]1C	Aoyama B (amithiozone-resistant)	-	-	MIC	-	12.5 µg/mL
O=c1c2ccccc2n2n1Cc1ccccc1C2	H37Rv	-	resazurin	inhibition	6.25 µg/mL	33%
O=C(NCc1ccccc1)c1ncccc1O	CNCTC MY 331/8	-	-	MIC	-	500 µM
CCOc1cc(=O)cc2n(-c3cc(OCC)c(OC)c(OCC)c3)c3ccccc3nc1-2	H37Rv	-	BACTEC	MIC bound	-	>12.5 µg/mL
Cc1ccc2nc3n(c(=O)c2c1)-c1ccc(F)cc1C3=O	H37Rv	-	-	MIC	-	1 µg/mL
CC1(C)CCC[C@]2(C)[C@H]3C=C4C=C(O)C(=O)C=C4O[C@@]3(C)CC[C@@H]12	H37Rv	-	BACTEC	MIC	-	≥12.5 µg/mL
Cc1cccc2c(=O)n3c(nc12)C(=O)c1cc(F)ccc1-3	H37Rv	-	-	MIC	-	5 µg/mL

For reference, 5 entries again:

smiles,strain or isolate,changes,read by,measure,tested at,result
O=C(NCc1ccc(Br)cc1)c1ncccc1S,CNCTC MY 331/8,-,-,MIC,-,8 µM
O=C1c2cc(Br)ccc2-n2c1nc1ccccc1c2=O,MDR 10038,-,-,MIC,-,1 µg/mL
O=C(CCN1C(=O)/C(=C/c2ccc([N+](=O)[O-])cc2)SC1=S)NNC(=O)c1ccccc1,H37Rv,-,-,MIC,-,1.71 µM
COc1cc(-c2nnc(SCC3(c4ccccc4)OCCO3)o2)cc(OC)c1OC,H37Rv,-,BACTEC,inhibition,6.25 µg/mL,14%
COc1cc(-c2nnc(SCC3(c4ccc(F)cc4)OCCO3)o2)cc(OC)c1OC,H37Rv,-,BACTEC,inhibition,6.25 µg/mL,6%

MIC bound comes from a single tested concentration. ECn is the concentration giving n% inhibition of infection, replication or growth. MIC50, MIC90 and the like: level of inhibition, or share of isolates inhibited. Two numbers with a dash give a range or band. Blank or dashed fields: not listed here. Inhibition is in % at the dose shown (toxicity tests: loss of growth or viability).